In the data set the test system is Raw 264.7 cells. The settings on record: murine Norovirus test.

Where two headings read alike, the source gives them in different places.

Compound `C=O` [Formaldehyde, formaldehyde, reference compound] showed a Level of cytotoxicity (0.7% (m:v)) of 0.5.
Turning to “L-arginine, N^α-lauroyl-ethyl ester monohydrochloride [LAE®]”, the Level of cytotoxicity (50 ppm) stood at 0.5, the Level of cytotoxicity (500 ppm) is 0.5 and the Level of cytotoxicity (1000 ppm) is on record as 0.5.

Values taken from patent publication US20230151302A1, “Cationic surfactants, in particular ethyl lauroyl arginate LAE, for treating or preventing infections and contaminations with Coronavirus” (priority 2020, published 2023).
